For this data set, the system named is fibrinogen in human plasma. As to the kind of experiment: Precipitation assay.

Data on one substance can be found in patent US20070172471A1, “Method for identifying an anti- streptococcal agent and its use for treating streptococcal infections” (Hansa Medical AB, priority 2003, published 2007).

With “M1 protein: recombinant M1 protein of Streptococcus pyogenes expressed in E. coli (SEQ ID NO: 1)”, the precipitation in plasma result (M1 protein 1 μg/ml, plasma diluted 1/10, FIG. 3A) is recorded as “provoked a visible precipitation”. Besides, the “precipitation in fibrinogen-deficient plasma” value (data not shown) is recorded as “no precipitation occurred”. The “precipitation in fibrinogen solution” value (purified M1 protein and fibrinogen, same concentrations as in plasma, FIG. 3C) was “a precipitate was formed”.
